Only a part is listed here, and it is no random draw. Active and inactive are the calls of the source.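 Rule for the calls: active = every replicate shows inhibition above about 80%, whatever the replicate mean (limit read from the data); inconclusive = mean inhibition reaches the set limit but some replicate falls short; inactive = the rest.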
assay: growth inhibition of PfHsp90-expressing yeast, primary screen, antimalarial PfHsp90 inhibitor project, S. cerevisiae, BacTiter-Glo luminescence, single point, set 2 (AID 504621); conditions: BacTiter-Glo ATP, 48 h, at 9.4 µM, stronger effect = higher value, yeast lacking PDR1 and PDR3 efflux regulators;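 note: yeast relying on Plasmodium falciparum Hsp90 in place of its own; 0% = DMSO neutral controls and 100% = 20 µM radicicol positive controls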

| SMILES | inhibition |
| --- | --- |
| CC(=O)Nc1ccc(Oc2c([N+](=O)[O-])cc([N+](=O)[O-])cc2[N+](=O)[O-])cc1 | inactive: 13.1% |
| CC(=O)Nc1ccc([As](=O)(O)O)c(O)c1 | inactive: -5.63% |
| C[C@H]1OP(=O)(Oc2ccccc2)C[C@@H]2O[C@@H]21 (stereo partly drawn) | inactive: 6.61% |
| C[C@@H]1C=CCP(=O)(Oc2ccccc2)O1 (stereo partly drawn) | inactive: -2.4% |
| Cc1ccccc1CN(C)C(=O)COC(=O)C(O)(c1ccccc1)c1ccccc1 | inactive: -3.41% |
| COC(=O)C1(C)COP(=O)(NCc2ccccc2)OC1 (stereo not drawn) | inactive: 31.6% |
| CC(=O)c1ccc(N2CC2c2ccncc2)cc1 (stereo not drawn) | inactive: -28.7% |
| N#C/C(=C\c1ccc(N(CCBr)CCBr)cc1)C(N)=O | inactive: -10.1% |
| O=P1(N(CCCl)CCCl)OCCC2CCCCN21 (stereo not drawn) | inactive: 12.6% |
| Cc1ccc(NP(=O)(Oc2cccc(C)c2)Oc2cccc(C)c2)nc1 | inactive: 5.03% |
| c1ccc(-c2nn[nH]n2)c(-c2nn[nH]n2)c1 | inactive: 15% |
| CCNC(=S)/N=C(\N)N[N+](=O)[O-] | inactive: 1.54% |
| O=C(NC1CCS(=O)(=O)C1)NP(=S)(Oc1ccccc1)Oc1ccccc1 (stereo not drawn) | inactive: -21% |
| O=c1c2cc([N+](=O)[O-])ccc2[nH]c2c([N+](=O)[O-])cc([N+](=O)[O-])cc12 | active: 105% |
| CN(C)C(=O)Oc1noc2ccccc12 | inactive: -17% |
| Cc1ccccc1OP(=O)(Nc1ccccn1)Oc1ccccc1C | inactive: -7.01% |
| CCC(=O)N1C2C3N(C(=O)CC)C1C1N(C(=O)CC)C(C(N1C(=O)CC)N3C(=O)CC)N2C(=O)CC | inactive: -9.77% |
| O=C(OC1CN2CCC1CC2)c1ccccc1 (stereo not drawn) | inactive: -7.32% |
| Cc1ccc(OP(=O)(Nc2ccccn2)Oc2ccc(C)cc2)cc1 | active: 90.4% |
| CC(=O)NC(SC(=S)N(CC(C)C)CC(C)C)C(Cl)(Cl)Cl (stereo not drawn) | inactive: -5.93% |

| SMILES | inhibition |
| --- | --- |
| COC(=O)c1cc2c(s1)N=C(c1ccccc1)N(C)P2(=O)N1CCOCC1 (stereo not drawn) | inactive: 7.33% |
| Cc1ccc(NP(=O)(Oc2ccccc2F)Oc2ccccc2F)nc1 | inactive: 15.4% |
| CN(C(=O)Cc1ccc(Cl)c(Cl)c1)[C@H]1CCCC[C@@H]1N1CCCC1 | inactive: 4.27% |
| Cc1cc(SC(NC(=O)c2ccc(F)cc2)C(Cl)(Cl)Cl)ncn1 (stereo not drawn) | inactive: 23.3% |
| CCOP(=O)(Nc1ccccc1)OCC | inactive: 6.62% |
| O=P(Nc1nc2ccc(Cl)cc2s1)(c1ccccc1)c1ccccc1 | inactive: -15.7% |
| CCCC1OP(N)(=O)OCC1CC (stereo not drawn) | inactive: -12.9% |
| CC(=O)Nc1ccc([As](=O)(O)O)cc1 | inactive: 4.4% |
| O=C(O)c1ccccc1[As](=O)(O)O | inactive: 2.99% |
| Nc1cccc2ccc([As](=O)(O)O)cc12 | inactive: -5.21% |
| CCN(N=Nc1nonc1N)c1nonc1N | inactive: 6.73% |
| CN1CCCC(OC(=O)C(c2ccccc2)c2ccccc2)C1 (stereo not drawn) | inactive: 35% |
| Clc1ccc(Cl)c(NC2=NCC(CBr)S2)c1 (stereo not drawn) | inactive: -37.6% |
| COc1ccccc1OP(=O)(Nc1ccc(C)cn1)Oc1ccccc1OC | inactive: 27.5% |
| Cc1ccc(N/C(=N/P(=O)(N2CCOCC2)N2CCOCC2)N2CCOCC2)cc1 | inactive: 13.2% |
| CN(C(=O)Cc1ccc(Cl)c(Cl)c1)[C@H]1CCCC[C@H]1N1CCCC1 | inactive: -11.2% |
| NC(=O)c1cc([N+](=O)[O-])cc([N+](=O)[O-])c1N | inactive: -37.1% |
| O=C(NC(Sc1ccncn1)C(Cl)(Cl)Cl)c1ccccc1 (stereo not drawn) | inactive: 7.45% |
| Oc1ccccc1CNc1ccccn1 | inactive: 7.96% |
| Nc1cc(N)c2nonc2c1[N+](=O)[O-] | inactive: 18.6% |

| SMILES | inhibition |
| --- | --- |
| CC(C)CC(=O)NC(Sc1ccc(Cl)cc1)C(Cl)(Cl)Cl (stereo not drawn) | inactive: 8.33% |
| O=[N+]([O-])c1cc([N+](=O)[O-])c(CCNc2ccccc2)c([N+](=O)[O-])c1 | inactive: -12.6% |
| Cc1ccc(NP(=O)(Oc2ccccc2)Oc2ccccc2)nc1 | inactive: 22% |
| O=[N+]([O-])c1cccc2n[nH]nc12 | inactive: -2.75% |
| CC(=O)N1C2C3N(C(C)=O)C1C1N(C(C)=O)C(C(N1C(C)=O)N3C(C)=O)N2C(C)=O | inactive: -9.12% |
| CC1CCN(C(=O)Oc2c(Cl)cc(Cl)c3cccnc23)CC1 | inactive: -4.37% |
| CN(C)C(=O)OCCc1n(C)cc[n+]1C | inactive: -16% |
| CC(C)=N/N=C(\N)N[N+](=O)[O-] | inactive: -18.5% |
| CCN(/C(=N/P(=O)(N1CCOCC1)N1CCOCC1)N1CCOCC1)c1ccc(OC)cc1 | inactive: -6.21% |
| C[N+]1=C2C=CC=CC=C2SC12C([N+](=O)[O-])=CC([N+](=O)[O-])=C[C-]2[N+](=O)[O-] (stereo not drawn) | inactive: -19.9% |
| Nc1ccc([As](=O)(O)c2ccc(N)cc2)cc1 | inactive: 2.39% |
| O=C(Nc1cc([As](=O)(O)O)ccc1O)c1ccccc1 | inactive: -1.67% |
| O=P1(N(CCCl)CCCl)OCCCS1 (stereo not drawn) | inactive: 6.79% |
| O=C(O)CNc1ccc([As](=O)(O)O)cc1 | inactive: -7.28% |
| COC(=O)C1(C)COP(=O)(Nc2ccccc2)OC1 (stereo not drawn) | inactive: 18.4% |
| O=[N+]([O-])c1cccc(NC2=NCC(CBr)S2)c1 (stereo not drawn) | inactive: -14% |
| O=[N+]([O-])c1ncn(CCn2ncnc2[N+](=O)[O-])n1 | inactive: -11.2% |
| CC(C)(C)C(=O)NC(Sc1ccncn1)C(Cl)(Cl)Cl (stereo not drawn) | inactive: -50.8% |

From PubChem BioAssay AID504621 (Broad Institute, 2011)
